For 2 compounds, IC90 and CC50 results are on record in PubChem BioAssay AID1626 (SRMLSC, 2009).

The experiment deals with M. tuberculosis H37Rv growth inhibition. The experiment in a line: M. tuberculosis H37Rv growth inhibitors, H37Rv strain (AID 1626). The note with it: for IC90: measured here: IC90 against H37Rv.

One may read the IC90 as the point of the concentration-response curve where the effect stands at 90%. Compound `CCCCCOc1ccc(NP(C)(=O)Oc2ccc(Cl)cc2Cl)cc1` (stereo not drawn) gave an IC90 of more than 100 µM. A word on the CC50: it is the concentration at which the toxic effect on the cells reaches its halfway point. In turn, `O=[N+]([O-])c1cc([N+](=O)[O-])c(Nc2ccccn2)c([N+](=O)[O-])c1` came in with an IC90 of 4.59 µM. The same compound gave a CC50 (measured here: Vero cell cytotoxicity) of 20.6 µM.
